According to paper PMC8828441:

Target: dimeric human ACE2 fused to the Fc domain of human immunoglobulin (Ig)G (human) (UniProt Q9BYF1)
Assay: SPR

Work on “ADDomer decorated with SARS-CoV-2 RBD (from UniProt P0DTC2 320-554) (complex)” yielded a Kd of 0.309 nM.
